Source: ChEMBL document CHEMBL4296182, “CO-ADD screening of NIH NCI Diversity Set V”

Experiments:
Klebsiella pneumoniae = settings: ATCC 700603, Concentration 20.0 uM
Pseudomonas aeruginosa = settings: ATCC 27853, Concentration 20.0 uM
Cryptococcus neoformans = settings: ATCC 208821, Concentration 20.0 uM
Candida albicans = settings: ATCC 90028, Concentration 20.0 uM
Staphylococcus aureus = experiment: Antibacterial activity against Staphylococcus aureus MRSA ATCC 43300 (CO-ADD:GP_020); MIC in CAMBH media using NBS plates, by Resazurin F(560/590); format: functional; settings: Concentration 20.0 uM
Acinetobacter baumannii = experiment: Antibacterial activity against Acinetobacter baumannii ATCC 19606 (CO-ADD:GN_034); MIC in CAMBH media using NBS plates, by Resazurin F(560/590); format: functional; settings: Concentration 20.0 uM
Escherichia coli = experiment: Antibacterial activity against Escherichia coli ATCC 25922 (CO-ADD:GN_001); MIC in CAMBH media using NBS plates, by Resazurin F(560/590); format: functional; settings: Concentration 20.0 uM

CCOP(=O)(Nc1ccc(C)cn1)OCC
inhibition (Klebsiella pneumoniae): 8%
inhibition (Pseudomonas aeruginosa): 8.78%
inhibition (Cryptococcus neoformans): -4.73%
inhibition (Candida albicans): 2.14%

O=[As](O)(c1ccc(Cl)cc1)C1CCCCC1O (centres undefined)
inhibition (Klebsiella pneumoniae): 10.7%
inhibition (Pseudomonas aeruginosa): 19%
inhibition (Cryptococcus neoformans): -9.45%
inhibition (Candida albicans): 0.35%

O=C(O)CNc1ccc([As](=O)(O)O)cc1
inhibition (Klebsiella pneumoniae): 13.1%
inhibition (Pseudomonas aeruginosa): -5.72%
inhibition (Cryptococcus neoformans): -2.42%
inhibition (Candida albicans): -0.31%

COc1cc(I)ccc1[As](=O)(O)O
inhibition (Klebsiella pneumoniae): 13.2%
inhibition (Pseudomonas aeruginosa): 19.5%
inhibition (Cryptococcus neoformans): 0.69%
inhibition (Candida albicans): -1.48%

c1cc(-c2nn[nH]n2)ccc1-c1nn[nH]n1
inhibition (Klebsiella pneumoniae): 16.4%
inhibition (Pseudomonas aeruginosa): -2.02%
inhibition (Cryptococcus neoformans): 0.4%
inhibition (Candida albicans): 3.69%

O=P1(N(CCCl)CCCl)OCCC2CCCCN21 (centres undefined)
inhibition (Klebsiella pneumoniae): 8.56%
inhibition (Pseudomonas aeruginosa): 20.1%
inhibition (Cryptococcus neoformans): -4.28%
inhibition (Candida albicans): 1.77%

CCOC(=O)Nc1cccc([As](=O)(O)O)c1
inhibition (Klebsiella pneumoniae): 17.9%
inhibition (Pseudomonas aeruginosa): -9.75%
inhibition (Cryptococcus neoformans): -0.74%
inhibition (Candida albicans): 8.09%

COc1ccc(O)c2c(=O)c3c(OC)cc4c(c3oc12)[C@@H]1C=CO[C@@H]1O4
inhibition (Klebsiella pneumoniae): 5.12%
inhibition (Pseudomonas aeruginosa): 13.5%
inhibition (Cryptococcus neoformans): 6.09%
inhibition (Candida albicans): 0.86%

CC(=O)Nc1ccc([As](=O)(O)O)cc1
inhibition (Klebsiella pneumoniae): 6.95%
inhibition (Pseudomonas aeruginosa): 2.82%
inhibition (Cryptococcus neoformans): -7.62%
inhibition (Candida albicans): 5.27%

CCOC(=O)Nc1ccc([As](=O)(O)O)c(O)c1
inhibition (Klebsiella pneumoniae): 4.46%
inhibition (Pseudomonas aeruginosa): -2.18%
inhibition (Cryptococcus neoformans): -6.78%
inhibition (Candida albicans): 0.44%

O=C(Nc1cc([As](=O)(O)O)ccc1O)c1ccccc1
inhibition (Klebsiella pneumoniae): 9.13%
inhibition (Pseudomonas aeruginosa): 21.8%
inhibition (Candida albicans): -0.29%

C[As](=O)(O)c1cccc(C(=O)O)c1
inhibition (Klebsiella pneumoniae): -0.86%
inhibition (Pseudomonas aeruginosa): 10.3%
inhibition (Cryptococcus neoformans): 11.1%
inhibition (Candida albicans): 5.01%

O=C(O)c1ccccc1[As](=O)(O)O
inhibition (Klebsiella pneumoniae): 10.8%
inhibition (Pseudomonas aeruginosa): 5.99%
inhibition (Cryptococcus neoformans): -2.52%
inhibition (Candida albicans): 10.2%

O=[As](O)(c1ccccc1)c1ccc(O)cc1
inhibition (Klebsiella pneumoniae): 9.32%
inhibition (Pseudomonas aeruginosa): 4.81%
inhibition (Candida albicans): 1.56%

Nc1cccc2c([As](=O)(O)O)cccc12
inhibition (Pseudomonas aeruginosa): 12.2%
inhibition (Cryptococcus neoformans): -7.53%
inhibition (Candida albicans): -1.1%

Nc1ccc([As](=O)(O)c2ccc([N+](=O)[O-])cc2)cc1
inhibition (Klebsiella pneumoniae): 12.5%
inhibition (Pseudomonas aeruginosa): 22%
inhibition (Candida albicans): 3.13%

O=C(O)COc1ccc([As](=O)(O)O)cc1[N+](=O)[O-]
inhibition (Klebsiella pneumoniae): 10.3%
inhibition (Pseudomonas aeruginosa): 15.6%
inhibition (Cryptococcus neoformans): -3.88%
inhibition (Candida albicans): 1.79%

O=[As]1(O)c2ccccc2-c2ccccc21
inhibition (Klebsiella pneumoniae): 14.6%
inhibition (Pseudomonas aeruginosa): -4.16%
inhibition (Cryptococcus neoformans): -4.96%
inhibition (Candida albicans): 4.49%

O=[As](O)(c1cccc(O)c1)c1cccc(O)c1
inhibition (Klebsiella pneumoniae): 11.7%
inhibition (Pseudomonas aeruginosa): -7.13%
inhibition (Cryptococcus neoformans): -5.47%
inhibition (Candida albicans): 1.82%

Nc1cccc([As](=O)(O)c2ccccc2)c1
inhibition (Klebsiella pneumoniae): 18.4%
inhibition (Pseudomonas aeruginosa): 5.26%
inhibition (Cryptococcus neoformans): -9.06%
inhibition (Candida albicans): -0.55%

CCCOP(=S)(Nc1nc(N)cc(O)n1)OCCC
inhibition (Klebsiella pneumoniae): 7.63%
inhibition (Pseudomonas aeruginosa): 16.7%
inhibition (Cryptococcus neoformans): -4.47%
inhibition (Candida albicans): 2.06%

O=[As](O)(O)c1cccnc1
inhibition (Klebsiella pneumoniae): 5.22%
inhibition (Pseudomonas aeruginosa): 6.33%
inhibition (Cryptococcus neoformans): -2.41%
inhibition (Candida albicans): 0.55%

O=[As](O)(c1cccs1)c1cccs1
inhibition (Klebsiella pneumoniae): 13.2%
inhibition (Pseudomonas aeruginosa): 12.2%
inhibition (Candida albicans): 6.82%

Nc1ccc([As](=O)(O)O)c(O)c1
inhibition (Klebsiella pneumoniae): 9.97%
inhibition (Pseudomonas aeruginosa): 6.7%
inhibition (Candida albicans): -0.86%

O=[N+]([O-])c1ccc(Nc2ccc(Oc3ccc([N+](=O)[O-])cc3[N+](=O)[O-])cc2)c([N+](=O)[O-])c1
inhibition (Klebsiella pneumoniae): 14.9%
inhibition (Pseudomonas aeruginosa): 24.6%
inhibition (Cryptococcus neoformans): -2.63%
inhibition (Candida albicans): -0.35%

O=[N+]([O-])c1ccc(OP2(=O)COCCO2)cc1 (centres undefined)
inhibition (Klebsiella pneumoniae): 10.9%
inhibition (Pseudomonas aeruginosa): -4.49%
inhibition (Staphylococcus aureus): -7.59%
inhibition (Cryptococcus neoformans): -7.05%
inhibition (Acinetobacter baumannii): 1.25%
inhibition (Candida albicans): 6.14%
inhibition (Escherichia coli): -6.91%

Nc1cccc2ccc([As](=O)(O)O)cc12
inhibition (Klebsiella pneumoniae): 11.6%
inhibition (Cryptococcus neoformans): 2.47%
inhibition (Candida albicans): 5.26%
